The experiment concerns the target recombinant chimeric antigen DAM (A35-M1-A35-M1) (monkeypox virus isolate MPXV_USA_2022_MA001).

pKd: −log10 of the molar value.

As for neutralizing antibody 7D11, the negative logarithm of the Kd (pKd) was 8.97, the off-rate (koff) is 0.000908 s⁻¹ and the kon was determined as 857000 M⁻¹ s⁻¹.

The values above are taken from US20260226110A1.
